Results of unrelated studies side by side (data: NIAID ChemDB).

Shared fields: whole-cell or culture tests; agent: Mycobacterium tuberculosis

ECn: concentration that inhibits the pathogen or its effect by n%.

structure,read by,mutations,dose,cell line,strain or isolate,endpoint,result
Cc1ccc(Oc2ccc([N+](=O)[O-])c3cccnc23)c(C)c1,,,,,H37Rv,MIC,100 µg/mL
O=C(Nc1ccc(C(F)(F)F)cc1)c1cncc(Cl)n1,,,,,H37Rv,MIC,8 µg/mL
O=C1C=C(Nc2ccccc2C(=O)c2ccccc2)c2ccccc2C1=O,resazurin,,6.25 µg/mL,,H37Rv,inhibition,76%
O=[N+]([O-])c1ccc(Sc2c(Cl)cccc2Cl)c2ncccc12,,,,,H37Rv,MIC,200 µg/mL
CC(=O)O[C@@H]1CC(=O)O[C@H](C)C[C@@H]2O[C@@H]2/C=C/C(=O)[C@H](C)C[C@H](CC=O)[C@H](OC2OC(C)C(OC3CC(C)(O)C(OC(=O)CC(C)C)C(C)O3)C(N(C)C)C2O)[C@H]1O,,,,,H37Ra,MIC,12.5 µM
CCOC(=O)CSc1nnc(-c2ncc([N+](=O)[O-])n2C)s1,,,,,H37Rv,MIC,1.56 µg/mL
COc1ccc(C)cc1NCc1cnc2nc(N)nc(N)c2c1C,,,,,H37Rv,MIC,6.25 µg/mL
CC(=O)O/N=C1\c2ccccc2-c2c1c(N1CCN(c3ccccn3)CC1)nc1ccc(Br)cc21,resazurin,,,,H37Rv,MIC90,>6.25 µg/mL
CC(C)(C)C1CCc2onc(C(=O)Nc3cnn(Cc4ccccc4Br)c3)c2C1,resazurin,,,,Rv3602c,MIC,>128 µM
CCOC(=O)C1=C(Nc2ccc(F)cc2)C(=O)N(C(C)(C)C)C1,BACTEC,,12.8 µg/mL,,H37Rv,inhibition,6%
O=C1C(=O)c2ccccc2C(O)=C1C1C(=O)c2ccccc2C(=O)C1O,,,,,H37Rv,MIC,>100 µg/mL
O=C(O)c1nc(C2CCCCC2)[nH]c1C1CCCCC1,,,,,H37Rv,MIC,>6.25 µg/mL
COc1c(O)cc2oc3cc(O)c(CC=C(C)C)c(O)c3c(=O)c2c1CC=C(C)C,BACTEC,,,,H37Rv,MIC,≥12.5 µg/mL
NC(=O)c1cnccn1,,,,,H37Rv,MIC,25 µg/mL
NC(=O)C1CCCN1C(=O)/C=C/c1ccccc1,BACTEC,,,,H37Rv,MIC bound,>12.5 µg/mL
N#CCSc1nnc(Cc2csc(NCCC(=O)O)n2)n1NC(=O)c1ccc(Cl)cc1,,,6.25 µg/mL,,H37Rv,inhibition,96%
CC(C)(C)C1CCc2onc(C(=O)Nc3cnn(Cc4ccccc4)c3)c2C1,resazurin,,,,Rv3602c,MIC,>128 µM
CCCCCCCCN1C(=O)CCNC1=S,,,,,H37Rv,MIC,5 µg/mL
Nc1ccc(Sc2nc3ccccc3s2)c2ncccc12,,,,,H37Rv,MIC,40 µg/mL
CCc1nc(NCCCOC(C)C)c2cc(C)sc2n1,resazurin,,,,Erdman,EC50,0.32 µM
COc1cc(C)cc2c(O)c(-c3c(C)cc4c(O)ccc(O)c4c3OC)cc(O)c12,,,,,H37Rv,MIC,>100 µg/mL
CCCCCCCCOCCCCOP(=O)(O)C[C@@H]1O[C@H](CO)[C@@H](O)[C@@H]1O,,,,,H37Rv,MIC,>3.13 µg/mL
COCCCn1c(-c2cc(OC)c(OC)c(OC)c2)nn2c(=O)c3ccccc3nc2c1=O,BACTEC,,,,H37Rv,MIC bound,>12.5 µg/mL
O=C1CCNC(=S)N1c1ccccc1,,,,,H37Rv,MIC,1.3 µg/mL
CCCCCCCCCCCCCCCCOCCCCOP(=O)(O)C[C@@H]1O[C@H](CO)[C@@H](O)[C@@H]1O,,,,,H37Rv,MIC,3.13 µg/mL
CC(C)CC(NC(=O)OC(C)(C)C)C(=O)O/N=C1\c2ccccc2-c2c1c(N1CCN(c3ccccn3)CC1)nc1ccc(Br)cc21,resazurin,,,,H37Rv,MIC90,>6.25 µg/mL
CCOC(=O)c1cc(C)nc2c1c(=O)n(-c1ccccc1)c(=O)n2CCCCN1CCN(c2ccccc2)CC1,resazurin,,,,H37Rv,MIC bound,>6.25 µg/mL
Cc1ccc(C)c(Oc2ccc([N+](=O)[O-])c3cccnc23)c1,,,,,H37Rv,MIC,1 µg/mL
CC(C)(C)c1cnc(C(=O)Nc2ccc(C(F)(F)F)cc2)cn1,,,,,H37Rv,MIC,8 µg/mL
O=C1C2=C(Nc3cc([N+](=O)[O-])ccc3N2)OC1c1ccc(Cl)cc1Cl,BACTEC,,,,H37Rv,MIC bound,>12.5 µg/mL
CCC(C)Oc1ccc(N2C(=O)CCNC2=S)cc1,,,,,H37Rv,MIC,5 µg/mL
CN(c1cn([C@@H]2CC[C@H](CO)O2)c(=O)[nH]c1=O)C1CCCCC1,resazurin,,6.25 µg/mL,,H37Rv,inhibition,-11%
CC(C)(C)C1CCc2onc(C(=O)O)c2C1,resazurin,,,,Rv3602c,MIC,>128 µM
COc1ccc(-c2c(C)c(C(=O)O)nc(-c3ccc4c(O)c(OC)c5c(c4n3)=NC(C)(C)N=5)c2N)c(O)c1OC,,,,,H37Ra,MIC,12.5 µM
Nc1nc2c(-c3ccc([N+](=O)[O-])cc3)nnn2c2ccccc12,BACTEC,,,,H37Rv,MIC bound,>12.5 µg/mL
CCCCCCCOCCCCOP(=O)(O)C[C@@H]1O[C@H](CO)[C@@H](O)[C@@H]1O,,,,,H37Rv,MIC,>3.13 µg/mL
CCCCC(=O)O/N=C1\c2ccccc2-c2c1c(N1CCN(c3ccccn3)CC1)nc1ccc(Br)cc21,resazurin,,,,H37Rv,MIC90,>6.25 µg/mL
CCOc1ccc(N2C(=O)CCNC2=S)cc1,,,,,H37Rv,MIC,5 µg/mL
O=C(O)c1c[nH]c2cc(OCc3ccccc3)ccc2c1=O,,,,,H37Ra,MIC,12.5 µM
CC(C)(C)C1CCc2onc(C(=O)Nc3cnn(Cc4ccccc4I)c3)c2C1,,,,,Rv3602c,MIC,>128 µM
C/C=C1\C(=O)O[C@]23C=C[C@@H]4C(C(=O)OC)=CO[C@H](O[C@@H]12)[C@@H]43,MTT,,,,MDR2 clinical isolate,MBC,4.4 µg/mL
O=[N+]([O-])c1ccc(Sc2ccc(O)cc2)c2ncccc12,,,,,H37Rv,MIC,>200 µg/mL
CO[C@H]1/C=C/O[C@@]2(C)Oc3c(C)c(O)c4c(O)c(c(/C=N/N=C/N5CCCC5)c(O)c4c3C2=O)NC(=O)/C(C)=C\C=C\[C@H](C)[C@H](O)[C@@H](C)[C@@H](O)[C@@H](C)[C@H](OC(C)=O)[C@@H]1C,,,,,,MIC,0.0025 µg/mL
O=C(Nc1ncc([N+](=O)[O-])s1)c1cccnc1,,,,,EMB-R,MIC,12.5 µg/mL
Nc1ccc(S(=O)(=O)c2c(Cl)cccc2Cl)c2ncccc12,,,,,H37Rv,MIC,1 µg/mL
C=CC1C(C[C@@H]2c3cc(O)c(O)cc3CCN2C(C)=O)C(C(=O)OC)=CO[C@H]1OC1OC(CO)C(O)C(O)C1O,BACTEC,,,,H37Rv,MIC,≥12.5 µg/mL
Cc1cc(O)c2c(c1)C(=O)C(c1c(C)cc3c(c1O)C(=O)C=CC3=O)=CC2=O,,,,,H37Rv,MIC,100 µg/mL
CCCCCCCCC(=O)O/N=C1\c2ccccc2-c2c1c(N1CCN(c3ccccn3)CC1)nc1ccc(Br)cc21,resazurin,,,,H37Rv,MIC90,>6.25 µg/mL
CN[C@@H]1[C@H](O[C@H]2[C@H](O[C@H]3[C@H](O)[C@@H](O)[C@H](N=C(N)N)[C@@H](O)[C@@H]3N=C(N)N)O[C@@H](C)[C@]2(O)C=O)O[C@@H](CO)[C@H](O)[C@H]1O,visual reading,EJMCh6A MmpL3  (V684A),,,H37Rv,MIC90,2 µM
COc1ccc(P2(=S)Oc3ccc(C(c4ccccc4)(c4ccccc4)c4ccccc4)cc3O2)cc1,BACTEC,,,,H37Rv,MIC bound,>12.5 µg/mL
O=[N+]([O-])c1ccc(S(=O)(=O)c2nc3ccccc3[nH]2)c2ncccc12,,,,,H37Rv,MIC,40 µg/mL
CCOC(=O)c1nc(C2CCCC2)[nH]c1C1CCCC1,,,6.25 µg/mL,,H37Rv,inhibition,91%
COc1cc(OC)c(OC)cc1/C=N/N=C(\N)NO,resazurin,,6.25 µg/mL,,H37Rv,inhibition,-10%
CCCCOc1ccc(N2C(=O)CCNC2=S)cc1,,,,,H37Rv,MIC,2.5 µg/mL
NNC(=O)c1ccncc1,resazurin,,,,H37Ra,MIC,0.0062–0.012 µg/mL
O=C(O)/C=C/c1cnc[nH]1,,,6.25 µg/mL,,H37Rv,inhibition,22%
COC(=O)CSc1nnc(-c2ccc([N+](=O)[O-])o2)s1,,,,,H37Rv,MIC,3.13 µg/mL
CC(C)c1ncc(C(=O)O)[nH]1,,,6.25 µg/mL,,H37Rv,inhibition,3%
Cn1c([N+](=O)[O-])cnc1-c1nnc(SCC(=O)OCc2ccccc2)s1,,,,,H37Rv,MIC,>6.25 µg/mL
CCc1cc(C(N)=S)ccn1,visual reading,,,,H37Rv,MIC,5 µg/mL
N#CC(C#N)C1c2ccccc2Oc2ccccc21,BACTEC,,,,H37Rv,MIC bound,>12.5 µg/mL
CCCCCCCCNC(=S)NCCC(=O)O,,,,,H37Rv,MIC,1.3 µg/mL
O=C1OC(CO)C(O)C2OC23C(=O)c2c(c(O)c(O)c(O)c2-c2c(O)c(O)c(O)c4c2C(=O)OC3C4O)-c2c1cc(O)c(O)c2O,BACTEC,,,,H37Rv,MIC bound,>12.5 µg/mL
Cc1ccc(NC(=O)c2cnccn2)cc1I,,,,,H37Rv,MIC,<2 µg/mL
CC(C)(C)C1CCc2onc(C(=O)Nc3cnn(Cc4ccc5ccccc5c4)c3)c2C1,resazurin,,,,Rv3602c,MIC,>128 µM
CO[C@H]1/C=C/O[C@@]2(C)Oc3c(C)c(O)c4c(=O)c(c5oc6cc(N7CCN(CC(C)C)CC7)cc(=O)c6nc5c4c3=C2O)NC(=O)/C(C)=C\C=C\[C@H](C)[C@H](O)[C@@H](C)[C@@H](O)[C@@H](C)[C@H](OC(C)=O)[C@@H]1C,,,,,,MIC90,0.015 µg/mL
O=C1CC[C@H](O)c2ccccc21,,,,,H37Rv,MIC,4 µg/mL
COc1ccc(/C=C/C(=O)c2sc(NC(=S)NC(=O)c3ccc(Cl)cc3)nc2C)cc1OC,resazurin,,,,H37Rv,MIC bound,>6.25 µg/mL
Oc1cc(Cl)ccc1Oc1ccc(Cl)cc1Cl,visual reading,,,,H37Rv,MIC,10 µg/mL
O[C@H](c1cc(C(F)(F)F)nc2c(C(F)(F)F)cccc12)[C@H]1CCCCN1,,,,,FQR-M13,MIC,5 µg/mL
CCOC(=O)CSc1nnc(-c2ccc([N+](=O)[O-])o2)s1,,,,,H37Rv,MIC,1.56 µg/mL
CCCCCOc1ccc(NC(=S)NCCC(=O)O)cc1,,,,,H37Rv,MIC,1.3 µg/mL
O=C1c2ccccc2C(=O)c2c1cccc2N1C(=O)C=CC1=O,BACTEC,,12.5 µg/mL,,H37Rv,inhibition,49%
O=C(CSc1nnc(-c2ccc([N+](=O)[O-])o2)s1)OCc1ccccc1,,,,,H37Rv,MIC,0.78 µg/mL
CCc1nc2ccc(Cl)cn2c1C(=O)NCc1ccc(N2CCC(c3ccc(OC(F)(F)F)cc3)CC2)cc1,resazurin,,,,Erdman,EC50,0.0015 µM
CCN(CCO)CCNc1ccc(CO)c2sc3cc(Cl)ccc3c(=O)c12,BACTEC,,,VERO,H37Rv,MIC,12.5 µg/mL
O=[N+]([O-])c1ccc(Sc2ccc(Cl)c(Cl)c2)c2ncccc12,,,,,H37Rv,MIC,20 µg/mL
CCc1nc(NCCCc2ccccc2)c2cc(C)sc2n1,resazurin,qcrCAB A178T,,,Erdman,EC50,>0.5 µM
CC(C)(C)c1ncc(C(=O)Nc2ccc(C(F)(F)F)cc2)nc1Cl,,,,,H37Rv,MIC,8 µg/mL
COc1ccc(Cc2noc(NC(=O)c3noc4c3CC(C(C)(C)C)CC4)c2C(N)=O)cc1,,,,,Rv3602c,MIC,>128 µM
Brc1ccc2nc(CCC3CCCCC3)[nH]c2c1,visual reading / absorbance,6C MmpL3 (G253E),,,H37Rv,MIC90,22.8 µM
CC(C)(C)C1CCc2onc(C(=O)Nc3cn[nH]c3)c2C1,,,,,Rv3602c,MIC,>128 µM
CCOc1ccc2nc3cc(N=Nc4ccc(N)nc4N)ccc3c(N)c2c1,BACTEC,,,,H37Rv,MIC,≥12.5 µg/mL
CCc1nc(NC(C(=O)O)C(C)C)c2cc(C)sc2n1,resazurin,qcrCAB,,,Erdman,EC50,1.7 µM

A second listing of 6 rows from above:

structure | read by | mutations | dose | cell line | strain or isolate | endpoint | result
CO[C@H]1/C=C/O[C@@]2(C)Oc3c(C)c(O)c4c(O)c(c(/C=N/N=C/N5CCCC5)c(O)c4c3C2=O)NC(=O)/C(C)=C\C=C\[C@H](C)[C@H](O)[C@@H](C)[C@@H](O)[C@@H](C)[C@H](OC(C)=O)[C@@H]1C |  |  |  |  |  | MIC | 0.0025 µg/mL
CCOc1ccc2nc3cc(N=Nc4ccc(N)nc4N)ccc3c(N)c2c1 | BACTEC |  |  |  | H37Rv | MIC | ≥12.5 µg/mL
O[C@H](c1cc(C(F)(F)F)nc2c(C(F)(F)F)cccc12)[C@H]1CCCCN1 |  |  |  |  | FQR-M13 | MIC | 5 µg/mL
CCCCC(=O)O/N=C1\c2ccccc2-c2c1c(N1CCN(c3ccccn3)CC1)nc1ccc(Br)cc21 | resazurin |  |  |  | H37Rv | MIC90 | >6.25 µg/mL
CCOC(=O)c1nc(C2CCCC2)[nH]c1C1CCCC1 |  |  | 6.25 µg/mL |  | H37Rv | inhibition | 91%
CCc1cc(C(N)=S)ccn1 | visual reading |  |  |  | H37Rv | MIC | 5 µg/mL

MIC50, MIC90 and the like: level of inhibition, or share of isolates inhibited. MIC bound comes from a single tested concentration. Two numbers with a dash give a range or band. Rows are shuffled and stem from different studies. Blank or dashed fields: not listed here. Inhibition is in % at the dose shown (toxicity tests: loss of growth or viability).